PubChem BioAssay AID504761, Drosophila RNAi Screening Center, 2011

Purpose: 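Insect host genes that dengue virus relies on to spread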 (primary screen)
System: D.Mel-2 cells from Drosophila
Reagents: long dsRNA against Drosophila genes
Conditions: infection with dengue virus type 2; dose and infection time not stated
Measured: 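Cells stained for dengue envelope protein and imaged; percent of infected cells per well on duplicate plates, ranked by infection, with stained nuclei counted for cell number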
Reading the numbers: infection score: higher = more virus-infected cells; cell count: higher = more cells in the well
Rule for the call: 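Low infection ranks in the two replicates (chance level up to 0.065) followed by a retest with a 1.5-fold or larger significant decrease, p below 0.05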
Calls: active = confirmed: knock-down lowers infection; inactive = not picked or not confirmed
The screen tested about 22,000 reagents; shown is a random part of those with a known target gene and a result. Of all reagents, 116 (0.52%) got an active call. 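Calls depend on retest data that are not deposited; infection was ranked per plate without normalising between plates; the unit of the infection score is not given.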 The raw values are shown without normalisation. Entries without a mark were called inactive. The numbers tell different reagents against one gene apart. Not stated in the record: the amount of reagent, the time to read-out.

no.	gene knocked down	dsRNA no.	infection score, replicate 1	infection score, replicate 2	cell count, replicate 1	cell count, replicate 2
1	CG8229	1	6.03	5.26	6536	6819
2	CG8229	2	14.6	11.3	6660	6675
3	tzn	1	4.78	17.6	6500	6404
4	btd	1	9.76	6.2	6720	6759
5	btd	2	14.5	12.2	5357	3209
6	QIL1	1	11.6	22	4511	5780
7	CG4020	1	2.01	1.13	6532	6873
8	tx (retired record)	1	18.4	1.3	6372	6480
9	tx (retired record)	2	28.6	14.9	5625	6124
10	fz2	1	7.29	7.8	5141	5679
11	fz2	2	5.68	4.63	6024	6067
12	PolrMT	1	7.92	14.8	4341	4621
13	CG5114	1	9.38	5.54	6289	6031
14	Dh44-R2	1	30.7	24	6010	6596
15	Dh44-R2	2	11.1	8.1	3746	6669
16	Ccdc39	1	1.93	3.94	6882	6896
17	CG13949	1	0.89	4.02	5704	5642
18	CG13949	2	3	4.37	6301	6135
19	Arfrp1	1	1.78	6.17	6790	6448
20	CG15464 (retired record)	1	2.39	6.06	6809	6982
21	CG15464 (retired record)	2	3.52	7.8	6646	6182
22	uex	1	1.66	6.92	6493	5662
23	uex	2	6.97	29.3	6599	5642
24	CG5478	1	2.79	3.45	6494	6406

The list goes on; the last 3 above are carried over.
no.	gene knocked down	dsRNA no.	infection score, replicate 1	infection score, replicate 2	cell count, replicate 1	cell count, replicate 2
22	uex	1	1.66	6.92	6493	5662
23	uex	2	6.97	29.3	6599	5642
24	CG5478	1	2.79	3.45	6494	6406
25	RfC4	1	10.5	2.24	5712	5807
26	RfC4	2		2.36	263	552
27	CG14451	1	8.95	11.6	6627	6629
28	CG14451	2	3.17	3.83	5638	5801
29	Su(fu)	1	24.9	28.2	4544	5754
30	CG32237	1	4.51	0.41	6146	5907
31	CG32237	2	1.31	1.62	6044	6042
32	CG32237	3	23.8	23.4	5307	4009
33	pkaap	1	18.2	0.88	5685	6573
34	CG3386	1	1.88	8.05	6393	5740
35	CG3386	2	13.2	18	5540	5604
36	CG40486	1	1.1	6.77	6743	7062
37	mod	1	5.2	2.84	6148	6194
38	mod	2	11.5	7.34	2963	4945
39	mago	1	16.9	9.31	5501	6394
